Measured values from ChEMBL document CHEMBL4017475, “Discovery of benzophosphadiazine drug candidate IDX375: A novel hepatitis C allosteric NS5B RdRp inhibitor” (2017).

Assays:
[1] = Inhibition of Hepatitis C virus 1b NS5B RNA-dependent RNA polymerase by cell based assay
[2] = tested on: Hepatitis C virus; assay: Antiviral activity against Hepatitis C virus by luciferase assay
[3] = Inhibition of Hepatitis C virus 1a NS5B RNA-dependent RNA polymerase by cell based assay
[4] = tested on: Cynomolgus monkey; assay: Tmax in cynomolgus monkey at 10 mg/kg, po; conditions: in vivo
[5] = tested on: Mus musculus; assay: Cmax in mouse at 15 mg/kg, po; conditions: in vivo
[6] = tested on: Cynomolgus monkey; assay: Cmax in cynomolgus monkey at 10 mg/kg, po; conditions: in vivo
[7] = tested on: Cynomolgus monkey; assay: Half life in cynomolgus monkey at 10 mg/kg, po; conditions: in vivo
[8] = tested on: Mus musculus; assay: Half life in mouse at 15 mg/kg, po; conditions: in vivo
[9] = tested on: Rattus norvegicus; assay: Tmax in rat at 15 mg/kg, po; conditions: in vivo
[10] = tested on: Hepatitis C virus; assay: Antiviral activity against HCV-1 infected in human assessed as log reduction in HCV RNA levels at 200 mg, bid by RT-PCR method; conditions: strain genotype 1
[11] = tested on: Rattus norvegicus; assay: Half life in rat at 15 mg/kg, po; conditions: in vivo
[12] = tested on: Mus musculus; assay: Clearance in mouse at 15 mg/kg, po; conditions: in vivo
[13] = tested on: Rattus norvegicus; assay: Oral bioavailability in rat at 15 mg/kg; conditions: in vivo
[14] = tested on: Rattus norvegicus; assay: Cmax in rat at 15 mg/kg, po; conditions: in vivo
[15] = tested on: Cynomolgus monkey; assay: Clearance in cynomolgus monkey at 10 mg/kg, po; conditions: in vivo
[16] = tested on: Rattus norvegicus; assay: Clearance in rat at 15 mg/kg, po; conditions: in vivo
[17] = tested on: Mus musculus; assay: Tmax in mouse at 15 mg/kg, po; conditions: in vivo
[18] = tested on: Mus musculus; assay: Oral bioavailability in mouse at 15 mg/kg; conditions: in vivo
[19] = tested on: Cynomolgus monkey; assay: Oral bioavailability in cynomolgus monkey at 10 mg/kg; conditions: in vivo

Compound	IC50 [1]	EC50 [2]	IC50 [3]	also measured
CCOP1(=O)N=C(C2=C(O)C3(CC4CCC3C4)N(CCC(C)(C)C)C2=O)Nc2ccc(NS(C)(=O)=O)cc21 (stereo unspecified)	6 nM	185 nM	186 nM	
CCOP1(=O)N=C(C2=C(O)C(C(C)(C)C)N(CCC(C)(C)C)C2=O)Nc2ccc(OC)cc21 (stereo unspecified)	707 nM	6160 nM		
CCOP1(=O)N=C(C2=C(O)C(C(C)(C)C)N(Cc3ccccc3)C2=O)Nc2ccc(NS(C)(=O)=O)cc21 (stereo unspecified)	8 nM	90 nM	57 nM	
CCOP1(=O)N=C(C2=C(O)C(C(C)(C)C)N(CCC3CC3)C2=O)Nc2ccc(NS(C)(=O)=O)cc21 (stereo unspecified)	14 nM	126 nM	80 nM	
CCOP1(=O)N=C(C2=C(O)C(C(C)(C)C)N(CCC(C)(C)C)C2=O)Nc2ccc(NS(N)(=O)=O)cc21 (stereo unspecified)	8 nM	56 nM		
CCOP1(=O)N=C(C2=C(O)C(C3CCCCC3)N(CCC(C)(C)C)C2=O)Nc2ccc(NS(C)(=O)=O)cc21 (stereo unspecified)	7 nM	216 nM	97 nM	
CCOP1(=O)N=C(C2=C(O)C(Cc3c[nH]c4ccccc34)N(CCC(C)(C)C)C2=O)Nc2ccc(NS(C)(=O)=O)cc21 (stereo unspecified)	300 nM	> 8300 nM	1140 nM	
CCOP1(=O)N=C(C2=C(O)C(C)(CC)N(CCC(C)(C)C)C2=O)Nc2ccc(NS(C)(=O)=O)cc21 (stereo unspecified)	800 nM	> 8300 nM		
CCOP1(=O)N=C(C2=C(O)C(C3CCCC3)N(CCC(C)(C)C)C2=O)Nc2ccc(NS(C)(=O)=O)cc21 (stereo unspecified)	8 nM	55 nM	67 nM	
CCOP1(=O)N=C(C2=C(O)C(C(C)(C)C)N(CCC(C)(C)C)C2=O)Nc2ccc(F)cc21 (stereo unspecified)	116 nM	4800 nM	3610 nM	
CCOP1(=O)N=C(C2=C(O)C(CC(C)C)N(CCC(C)(C)C)C2=O)Nc2ccc(NS(C)(=O)=O)cc21 (stereo unspecified)	12 nM	842 nM	247 nM	
CCOP1(=O)N=C(C2=C(O)C(CCO)N(CCC(C)(C)C)C2=O)Nc2ccc(NS(C)(=O)=O)cc21 (stereo unspecified)	55 nM	> 8300 nM	1310 nM	
CCO[P@]1(=O)N=C(C2=C(O)[C@@H](C(C)(C)C)N(CCC(C)(C)C)C2=O)Nc2ccc(NS(C)(=O)=O)cc21	12 nM	1400 nM	1760 nM	
CCOP1(=O)N=C(C2=C(O)C(C)(C(F)(F)F)N(CCC(C)(C)C)C2=O)Nc2ccc(NS(C)(=O)=O)cc21 (stereo unspecified)	183 nM	> 8300 nM	> 10000 nM	
CCOP1(=O)N=C(C2=C(O)C(Cc3cscn3)N(CCC(C)(C)C)C2=O)Nc2ccc(NS(C)(=O)=O)cc21 (stereo unspecified)	490 nM	> 8300 nM	2600 nM	
CCOP1(=O)N=C(C2=C(O)C(C(C)(C)C)N(CCC(C)(C)C)C2=O)Nc2ccc(C#N)cc21 (stereo unspecified)	85 nM	3180 nM	4960 nM	
CCOP1(=O)N=C(C2=C(O)C(Cc3cccs3)N(CCC(C)(C)C)C2=O)Nc2ccc(NS(C)(=O)=O)cc21 (stereo unspecified)	200 nM	> 8300 nM	972 nM	
CCOP1(=O)N=C(C2=C(O)C(C(C)(C)C)N(CCC(C)(C)C)C2=O)Nc2ccc(N)cc21 (stereo unspecified)	114 nM	3270 nM	3730 nM	
CCOP1(=O)N=C(C2=C(O)C(C(C)(C)C)N(CCC(C)(C)C)C2=O)Nc2ccccc21 (stereo unspecified)	44 nM	3420 nM	3530 nM	
CCOP1(=O)N=C(C2=C(O)C(C)N(CCC(C)(C)C)C2=O)Nc2ccc(NS(C)(=O)=O)cc21 (stereo unspecified)	21 nM	6950 nM	961 nM	
CCOP1(=O)N=C(C2=C(O)C(C(C)(C)C)N(Cc3cnn(C)c3)C2=O)Nc2ccc(NS(C)(=O)=O)cc21 (stereo unspecified)	91 nM	> 8300 nM	8130 nM	
CCOP1(=O)N=C(C2=C(O)C(C(C)(C)C)N(Cc3ccc(F)c(F)c3)C2=O)Nc2ccc(NS(C)(=O)=O)cc21 (stereo unspecified)	5 nM	18 nM	15 nM	
CCOP1(=O)N=C(C2=C(O)C(C(C)(C)C)N(Cc3ccc(F)c(Cl)c3)C2=O)Nc2ccc(NS(C)(=O)=O)cc21 (stereo unspecified)	6 nM	31 nM	28 nM	
CCOP1(=O)N=C(C2=C(O)C(C(C)(C)C)N(CCC(C)(C)C)C2=O)Nc2ccc(C(N)=O)cc21 (stereo unspecified)	279 nM	7930 nM	2950 nM	

Compound	IC50 [1]	EC50 [2]	IC50 [3]	also measured
CCO[P@@]1(=O)N=C(C2=C(O)[C@H](C(C)(C)C)N(CCC(C)(C)C)C2=O)Nc2ccc(NS(C)(=O)=O)cc21	701 nM	1390 nM	1760 nM	
CCOP1(=O)N=C(C2=C(O)C(C(C)(C)C)N(Cc3ccc(F)cc3)C2=O)Nc2ccc(NS(C)(=O)=O)cc21 (stereo unspecified)	15 nM	44 nM	31 nM	
CCOP1(=O)N=C(C2=C(O)C(C(C)(C)C)N(CCC(C)(C)C)C2=O)Nc2ccc(C(F)(F)F)cc21 (stereo unspecified)	> 10000 nM	> 8300 nM		
CCOP1(=O)N=C(C2=C(O)C(C3CC3)N(CCC(C)(C)C)C2=O)Nc2ccc(NS(C)(=O)=O)cc21 (stereo unspecified)	12 nM	1200 nM	206 nM	
CCOC(=O)CC1C(O)=C(C2=NP(=O)(OCC)c3cc(NS(C)(=O)=O)ccc3N2)C(=O)N1CCC(C)(C)C (stereo unspecified)	915 nM	> 8300 nM		
CCOP1(=O)N=C(C2=C(O)C(C(C)(C)C)N(CCC(C)(C)C)C2=O)Nc2ccc(C)cc21 (stereo unspecified)	451 nM	4400 nM	> 10000 nM	
CCOP1(=O)N=C(C2=C(O)C(C(C)(C)C)N(CCC(C)(C)C)C2=O)Nc2ccc(N(C(C)=O)S(C)(=O)=O)cc21 (stereo unspecified)	65 nM	19 nM	817 nM	
CCOP1(=O)N=C(C2=C(O)C(C(C)(C)C)N(CCC(C)(C)C)C2=O)Nc2ccc(NS(C)(=O)=O)cc21 (stereo unspecified)	12 nM	9 nM	59 nM	
CCOP1(=O)N=C(C2=C(O)C(c3ccccc3)N(CCC(C)(C)C)C2=O)Nc2ccc(NS(C)(=O)=O)cc21 (stereo unspecified)	40 nM	5510 nM	728 nM	
CCOP1(=O)N=C(C2=C(O)C(C(C)(C)C)N(Cc3cncs3)C2=O)Nc2ccc(NS(C)(=O)=O)cc21 (stereo unspecified)	65 nM	> 8300 nM	1000 nM	
CCOP1(=O)N=C(C2=C(O)C(C(C)(C)C)N(CCC(C)(C)C)C2=O)Nc2ccc(OCC(N)=O)cc21 (stereo unspecified)	17 nM	130 nM	182 nM	
CCOP1(=O)N=C(C2=C(O)C(C(C)(C)C)N(Cc3ccc(F)c(OC)c3)C2=O)Nc2ccc(NS(C)(=O)=O)cc21 (stereo unspecified)	9 nM	39 nM	20 nM	
CCO[P@]1(=O)N=C(C2=C(O)[C@H](C(C)(C)C)N(CCC(C)(C)C)C2=O)Nc2ccc(NS(C)(=O)=O)cc21	5 nM	3 nM	15 nM	Tmax [4]: 4 h; Cmax [5]: 569 ng/mL; Cmax [6]: 2250 ng/mL; t1/2 [7]: 330 min; t1/2 [8]: 306 min; Tmax [9]: 4 h; Activity [10]: <=2.7; t1/2 [11]: 78 min; clearance [12]: 26.3 mL/min/kg; bioavailability [13]: 16%; Cmax [14]: 2210 ng/mL; clearance [15]: 14 mL/min/kg; clearance [16]: 10.2 mL/min/kg; Tmax [17]: 4 h; bioavailability [18]: 35%; bioavailability [19]: 28%
CCOP1(=O)N=C(C2=C(O)C(C(C)C)N(CCC(C)(C)C)C2=O)Nc2ccc(NS(C)(=O)=O)cc21 (stereo unspecified)	24 nM	610 nM	227 nM	
CCO[P@@]1(=O)N=C(C2=C(O)[C@@H](C(C)(C)C)N(CCC(C)(C)C)C2=O)Nc2ccc(NS(C)(=O)=O)cc21	14 nM	568 nM	324 nM	
CCOP1(=O)N=C(C2=C(O)C(C(C)(C)C)N(CCC(C)C)C2=O)Nc2ccc(NS(C)(=O)=O)cc21 (stereo unspecified)	10 nM	95 nM	40 nM	
CCOP1(=O)N=C(C2=C(O)C(C)(CC(C)C)N(CCC(C)(C)C)C2=O)Nc2ccc(NS(C)(=O)=O)cc21 (stereo unspecified)	64 nM	4390 nM	1360 nM	
CCOP1(=O)N=C(C2=C(O)C(C(C)(C)C)N(Cc3cccc(Cl)c3)C2=O)Nc2ccc(NS(C)(=O)=O)cc21 (stereo unspecified)	6 nM	162 nM	104 nM	
CCOP1(=O)N=C(C2=C(O)C3(CCCCC3)N(CCC(C)(C)C)C2=O)Nc2ccc(NS(C)(=O)=O)cc21 (stereo unspecified)	187 nM	5510 nM	5330 nM	
CCOP1(=O)N=C(C2=C(O)C(CCOCc3ccccc3)N(CCC(C)(C)C)C2=O)Nc2ccc(NS(C)(=O)=O)cc21 (stereo unspecified)	21 nM	> 8300 nM	4540 nM	
C#CCCCN1C(=O)C(C2=NP(=O)(OCC)c3cc(NS(C)(=O)=O)ccc3N2)=C(O)C1C(C)(C)C (stereo unspecified)	7 nM	1000 nM	167 nM	
CCOP1(=O)N=C(C2=C(O)C(C(C)(C)C)N(Cc3ccc(F)c(C)c3)C2=O)Nc2ccc(NS(C)(=O)=O)cc21 (stereo unspecified)	5 nM	15 nM	17 nM	
CCOP1(=O)N=C(C2=C(O)C(C)(C)N(CCC(C)(C)C)C2=O)Nc2ccc(NS(C)(=O)=O)cc21 (stereo unspecified)	1370 nM	> 8300 nM		
